## Percent effect of library compounds

Source: ChEMBL document CHEMBL3988442, “University of Dundee, Small-Polar-MMV Screening Library” (2021).

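Whole-cell growth test on Mycobacterium tuberculosis, read after 3 days in glucose-containing 7H9 medium; the read-out is not stated. Concentration: 50 µM. Higher reads as more growth inhibition (inferred: compounds with an IC50 in retests scored well above the rest). About 69,000 compounds were tested under these conditions; 1.1% (about 760) showed 50% or more at least once.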

Results are given as percent effect. The record does not define 0% and 100%; most values in the screen are far below 50% and negative numbers occur (in some assays of this library far below -100). This is part of a subset picked to be rich in strong results. Two or more numbers in one place are separate tests of the same structure; such repeats can differ widely.

With CN(C)S(=O)(=O)c1ccc(CN2CCC(C(N)=O)CC2)o1 the screen gave 12% and 83.69%.
With O=c1[nH]cnc2c1CCN(S(=O)(=O)c1ccc(Cl)cc1)C2 the screen gave 11.43%.
With CC(=O)NCC(Cc1cccc(F)c1)n1cccc1 (centres unmarked) the screen gave 8.141% and 65.8%.
With CN(Cc1cc(F)ccc1C#N)CC(C)(CO)CO the screen gave 59.1%.
With Cc1cccc(C(=O)N2CCCC(c3noc(C)n3)C2)n1 (centres unmarked) the screen gave -1.379%.
With Nc1nnnn1NCc1cccc2ccccc12 the screen gave 29.6%.
With COC(=O)c1ccc(CN(C)C(=O)c2cnsn2)cc1 the screen gave 44.44%.
With Cc1ccc(Oc2cc(F)ccc2O[C@@H]2CCC[C@@H](N)[C@H]2O)cc1 the screen gave 70.98%.
With CCOc1ccc(Cl)cc1C1CCCN1.Cl (centres unmarked) the screen gave 27.41% and 31.44%.
With CC(C)Oc1ccc(CSc2nnc(CN3CCCC3=O)o2)cc1 the screen gave 63.66%.
With CCNc1ncc2c(n1)CN(c1ccc(CC)cc1)C2=O the screen gave 133.1%.
With COCCOCCSc1nnc(Cc2ccccc2F)o1 the screen gave 20.24%.
With Cc1cn2c(n1)C(CNCC1=Cc3ccccc3OC1)CCC2 (centres unmarked) the screen gave 39.42%.
With Cc1ncsc1C(=O)NCC1SCCc2ccccc21 (centres unmarked) the screen gave -19.16%.
With N#Cc1ccccc1CN1CCCC(c2nccn2CC2CC2)C1 (centres unmarked) the screen gave -5.135% and -22.67%.
With CCC(C)S(=O)(=O)N1CCc2nc(C3CCNCC3)ncc2C1.Cl (centres unmarked) the screen gave 40.57%.
With CC(C)c1nc(C(=O)N(C)c2ccc(Br)cn2)cs1 the screen gave 29.06% and 9.143%.
With Nc1cc(N2CCOCC(Cc3ccc4[nH]ccc4c3)C2)ncn1 (centres unmarked) the screen gave 66.33%.
With COc1ccc(CN(C(=O)C2CCOCC2)c2ccncc2)cc1 the screen gave 9.496% and 7.038%.
With Cc1cccc(-c2noc(CN3CC(n4cc(C)cn4)C3)n2)c1 the screen gave 26.09%.
With Cl.NC(=O)COc1ccc(CNCc2ccc(F)c(F)c2)cc1 the screen gave -1.154% and -2.85%.
With Cc1nc(CC(=O)N2c3ccccc3OCC2C)cs1 (centres unmarked) the screen gave 2.268% and 7.542%.
With CCN(C)S(=O)(=O)NCC(O)c1cc2ccccc2s1 (centres unmarked) the screen gave 23.35%.
With CC(=O)Nc1nc(C(=O)Nc2ccc(N3CCCCC3)nc2)cs1 the screen gave -14.77%.
With CN1CCCC(c2cncc(-c3cccc(C(F)(F)F)c3)n2)C1 (centres unmarked) the screen gave 31.42%.
With O=C(O)C(F)(F)F.c1ccc(C[C@H]2CN(Cc3nccs3)CC[C@@H]2OCC2CC2)cc1 the screen gave 9.688%.
With CNC(=O)[C@@H](C)NC(=O)c1cc(-c2ccc(F)cc2)c(C)s1 the screen gave 8.572%.
With COc1ccc(C(O)CNC(=O)NCc2nc(C)cs2)cc1 (centres unmarked) the screen gave -17.59% and -5.876%.
With CC(C)N(Cc1ccccn1)C(=O)CCC(=O)c1ccccc1 the screen gave 4.518%.
With CC(C)Cc1cc(NC(=O)c2ccccc2F)n(C)n1 the screen gave 43.39%.
With CCOCc1nnc(NCc2cccnc2)o1 the screen gave -31.86%.
With CC(C)(C)OC(=O)NCCc1csc(N2CCCC2)n1 the screen gave 54.05%.
With CCNc1ncc(C(=O)N2CCOC(CCCc3ccccc3)C2)cn1 (centres unmarked) the screen gave 13.81%.
With CCNc1ncc(C(=O)N2CCOC(CCCC(C)C)C2)cn1 (centres unmarked) the screen gave 56.7%.
With c1cc2c(cc1CN1CCN(Cc3noc(C4CC4)n3)CC1)OCO2 the screen gave -0.7615%.
With CN(C)c1cc(CNC(=O)Nc2ccc(C#N)cc2)ccn1 the screen gave 16.13%.
With Cl.OC(CNCc1ccccc1C(F)(F)F)c1ccccc1 (centres unmarked) the screen gave -22.64%.
With O=S(=O)(CCN1CCOC(Cn2cccn2)C1)C(F)(F)F (centres unmarked) the screen gave 83.87%.
With COc1cccc(N2CCC(CNC(=O)NCc3ccco3)C2)c1 (centres unmarked) the screen gave -13.06%.
With OCCN1CCN(Cc2cc3c(cc2Br)OCCO3)CC1 the screen gave -24.33% and -4.841%.
With Cc1nc(CN(C)C2CCCN(c3cccnn3)C2)oc1C (centres unmarked) the screen gave 14.73%.
With COCc1cccc(NC(C(N)=O)c2ccc(Br)cc2)c1 (centres unmarked) the screen gave -10.24% and 9.366%.

Some entries from above, unchanged:

* Nc1cc(N2CCOCC(Cc3ccc4[nH]ccc4c3)C2)ncn1 (centres unmarked) | 66.33%
* CC(C)c1nc(C(=O)N(C)c2ccc(Br)cn2)cs1 | 29.06% and 9.143%
* Cc1cccc(C(=O)N2CCCC(c3noc(C)n3)C2)n1 (centres unmarked) | -1.379%
* CN(C)S(=O)(=O)c1ccc(CN2CCC(C(N)=O)CC2)o1 | 12% and 83.69%
* O=C(O)C(F)(F)F.c1ccc(C[C@H]2CN(Cc3nccs3)CC[C@@H]2OCC2CC2)cc1 | 9.688%